From article PMC9603946, “On the Sensitivity of the Virion Envelope to Lipid Peroxidation” (Microbiology Spectrum, 2022)
Marks after values point to notes of the source that are not given here.

Columns and labels:
HSV-1 [1] = experiment: HSV-1 virion infectivity (plaquing efficiency) on Vero cells after virion pretreatment; conditions: BSA present together with peroxidator, 2 h at 37°C
Protocol: (§1) The inocula were removed, and the cells were washed and then incubated at 37°C in 5% CO2 until plaques were visible and well-resolved (about 2 days), at which time they were fixed and stained with crystal violet.
(§2) HSV-1 suspensions of 20,000 plaque PFU in 250 μL DMEM were mixed 1:1 with 2-fold serial dilutions of the general peroxidators and were incubated in a water bath for 2 h at 37°C. Next, treated virions were diluted 1:100 before being adsorbed onto cells for 1 h at 37°C. The inocula were removed, and the cells were washed twice with cold DMEM. Infected cells were overlaid with DMEM supplemented with 2% (Vero) or 1% (HFF) methylcellulose and 5% FBS and were incubated at 37°C until plaques were visible and well-resolved, typically in about 2 days. Cell monolayers were fixed and stained with 1% crystal violet in 17% methanol for 18 h at RT. The cells were washed, and the plaques were counted and normalized to those produced by the vehicle treated virions.
(§3) To test the effects of lipid soluble antioxidants on virions, 10 μM vitamin E loaded onto 1% carrier BSA in the dark for 4.5 h at RT was incubated with 10^6 HSV-1 virions for 3 h at 37°C. […] The treated virions were diluted 1:100 before infecting cells. […] The mix was incubated for 2 h at 37°C, diluted 1:100, and used to infect cells. The infectivity of an aliquot of treated virions was tested via a plaque assay.

HSV-1 [2] = experiment: HSV-1 virion infectivity (plaquing efficiency) on HFF cells after virion pretreatment
Protocol: as §1, §2, §3

Vero cells = experiment: Vero cell lipid peroxidation probed with liperfluo; type: cell-based, African green monkey; conditions: Liperfluo probe
Protocol: (§4) The effects of peroxidators have been commonly evaluated against purified lipids and liposomes as a proxy, but they have not been evaluated against virions ([50], [53][–][55]). We instead directly evaluated the extent of virion lipid peroxidation.
To evaluate cell lipid peroxidation using liperfluo, 7.5 × 10^3 Vero cells were seeded into each well of 96-well plates and incubated for 18 h at 37°C in 5% CO2. […] Two hours later, the cells were washed twice, and the fluorescence was evaluated in a TECAN Infinite M200 Pro at 515 nm excitation and 545 nm emission.
(§5) To evaluate the effects of a lipid soluble antioxidant, cells or virions were preloaded with vitamin E-BSA for 3 h at 37°C. Vitamin E-BSA containing medium was removed, and the cells were washed twice with DMEM. Liperfluo (20 or 10 μM for cells or virions, respectively) or C11-Bodipy (1 μM for cells or 0.1 mol% for virions) were preloaded into the cells or virions for 30 min at 37°C.
(§6) To evaluate the effects of water soluble antioxidants, liperfluo (20 μM for cells or 10 μM for virions) or C11-Bodipy (1 μM for cells or 0.1 mol% for virions) were preloaded into the cells or virions for 30 min at 37°C. […] Fluorescence was evaluated in a TECAN Infinite M200 Pro at 515 nm excitation and 545 nm emission for liperfluo or at 550 nm excitation and 580 to 630 nm emission for C11-Bodipy.

HSV-1 virions = experiment: HSV-1 virion lipid peroxidation probed with C11-Bodipy; set-up: species or system HSV-1 KOS; conditions: Bodipy probe
Protocol: as §4
To evaluate virion lipoperoxidation with C11-Bodipy, 50 μL DMEM containing 5 × 10^6 PFU of HSV-1 was added into each well of 96-well plates. Virions were then preloaded with 0.1 mol % of C11-Bodipy for 30 min at 37°C. […] Fluorescence was evaluated in a TECAN Infinite M200 Pro at 550 nm excitation and 580 to 630 nm emission with the reading peak at 600 nm.
as §5, §6

Row | Compound | fold increase of EC50 by carrier BSA (HSV-1 [1]) | PI (cells)/PI (virus) (HSV-1 [2]; vitamin C) | PI (cells)/PI (virus) (HSV-1 [2]; vitamin E) | PI, EC50 (antioxidant)/EC50 (HSV-1 [2]; vitamin E) | LPP, CP50 (antioxidant)/CP50 (Vero cells; vitamin C) | LPP, CP50 (antioxidant)/CP50 (Vero cells; vitamin E) | LPI, CP50/VP50 (HSV-1 virions; no antioxidant) | LPI, CP50/VP50 (HSV-1 virions; vitamin C) | LPP of LPI row, LPI(virus)/LPI(cell) (HSV-1 virions; vitamin C) | LPP, VP50 (antioxidant)/VP50 (HSV-1 virions; vitamin C) | LPI, CP50/VP50 (HSV-1 virions; vitamin E) | LPP of LPI row, LPI(virus)/LPI(cell) (HSV-1 virions; vitamin E) | LPP, VP50 (antioxidant)/VP50 (HSV-1 virions; vitamin E) | PI, EC50 (antioxidant)/EC50 (HSV-1 [2]; vitamin C)
1 | CC(C)(N=NC(C)(C)C(=N)N)C(=N)N.Cl.Cl [AAPH, 2,2′-azobis(2-methylpropionamidine) dihydrochloride] | 2 fold | 0.2 | 0.4 | 1.3 ^* | 1.0 | 1.0 |  |  |  |  |  |  |  | 
2 | CC(C)CC(C)(C#N)N=NC(C)(C#N)CC(C)C (stereo not shown) [AMVN, 2,2′-azobis(2,4-dimethylvaleronitrile)] | 4 fold | 0.7 | 0.4 | 2.5 |  | 1.3 | 0.8 | 0.9 | 1.1 | 0.7 | 1.5 | 1.9^f | 0.9^e | 1.3
